Data: publication PMC8878317, “Chemogenomics identifies acetyl-coenzyme A synthetase as a target for malaria treatment and prevention” (Cell Chemical Biology, 2022)

How the values were obtained:
[1] = tested on: P. falciparum MMV019721-resistant lines (3D7-A10 or Dd2-B2 derived); test: Dose-response assay of MMV019721-selected resistant lines (bulk cultures and clones); format: cell-based
Protocol: For in vitro–selected lines, drug susceptibility was measured by SYBR Green I–based assay ([Johnson et al., 2007]; [Smilkstein et al., 2004]). Ring-stage parasites were cultured for 72 hr at 1% hematocrit and 1% starting parasitemia in 384-well black clear-bottom plates containing test compounds plated in triplicate in 12-point serial dilutions. Lysis buffer (0.16% w/v saponin, 1.6% Triton X-100, 5 mM EDTA, and 20 mM Tris-HCl, pH 7.4) with SYBR Green I fluorescent dye (Invitrogen) was added, and fluorescence readings were taken (excitation at 494 nm, emission at 530 nm). Alternatively, Dd2-B2 ring-stage cultures at 0.3% parasitemia and 1% hematocrit were exposed for 72 hr to a range of ten drug concentrations that were 2-fold serially diluted in duplicates along with drug-free controls. Parasite survival was assessed by flow cytometry on an Accuri C6 (BD Biosciences) using SYBR Green and MitoTracker Deep Red FM (Life Technologies) as nucleic acid stain and vital dyes respectively. EC50 values were calculated using a nonlinear regression curve fit in Prism Software version 8 (GraphPad).
Bulk cultures were tested for reduced drug susceptibility and individual clones were isolated by limiting dilution.

[2] = tested on: PfAcAS T648M; test: EnzChek assay, recombinant PfAcAS T648M; format: biochemical, P. falciparum
Protocol: (§1) Steady-state kinetic measurements were conducted at room temperature using a PheraStar plate reader (BMG). The first step of the reaction of PfAcAS, which produces inorganic pyrophosphate (PPi) that is converted to two molecules of inorganic phosphate using a pyrophosphatase enzyme, was continuously monitored using the EnzChek Phosphate Assay Kit, which gives an absorbance readout at 360 nm (Figure 4A) ([Webb, 1992]). […] By adding CoA, the reaction rapidly proceeds to the second step resulting in further release of pyrophosphate, making the EnzChek assay a suitable option to continuously monitor the activity of PfAcAS. Typical kinetic assays were carried out in clear, flat-bottom, polystyrene, 384-well plates (Greiner) in an 80 μL reaction volume containing 100 mM HEPES (pH7.4), 100 mM NaCl, 250 mM KCl, 50 mM MgCl2, 1 mM DTT, 0.004% Tween 20, 0.5 U/mL pyrophosphatase, 0.1 mM MESG, 0.5 U/mL PNP, 2 mM ATP, 2 mM acetate, 0.5 mM CoA and 5 nM recombinant PfAcAS WT or 10 nM recombinant PfAcAS A597V or T648M. […] The reactions were carried out for 2 to 4 hr with absorbance readings at 360 nm every two to four minutes. […] The substrates Km values were determined by varying the concentration of one of the substrates at saturating concentration of the other two substrates. […]

[3] = tested on: PfAcAS A597V; test: EnzChek assay, recombinant PfAcAS A597V; format: biochemical, P. falciparum
Protocol: as §1

[4] = tested on: histone acetylation in P. falciparum Dd2-A597V; details: trophozoites, 3 h exposure

Structure (SMILES) | average fold shift in the EC50 of resistant clones ([1]; clones isolated upon exposure to MMV019721) | average fold shift in EC50 over wild-type parasites, A597V clones ([1]; five clones with PfAcAS A597V) | fold resistance over wild-type parasites, clones with PfAcAS amplification ([1]; two clones, amplification on chromosome 6 containing PfAcAS) | fold increase of IC50, PfAcAS T648M vs WT [2] | fold increase of IC50, PfAcAS A597V vs WT [3] | histone acetylation in Dd2-A597V-resistant line [4]
CCN(CC)S(=O)(=O)c1ccc(Cl)c(C(=O)Nc2ccc3nc(C)sc3c2)c1 [MMV019721] | 12 fold | 15 fold | ~3.5 fold | 246 fold | 94 fold | protection
O=C(NNC(=O)c1csnn1)c1ccc(Cl)cc1 [MMV084978] | – | – | – | > 271 fold | > 271 fold | –
